Anti-infective test results gathered from many reports (values: NIAID ChemDB through PubChem).

Shared fields: tests in culture; agent: Mycobacterium tuberculosis

A number after MIC or MFC names an inhibition level or a share of isolates. Lines come from different laboratories, so protocols vary. Percent inhibition refers to the dose given; in toxicity tests it is the harm to the cells. Blank or dashed fields: not listed here. MIC bound: limit read from a one-dose screen.

smiles	mutations	conditions	read-out	read by	dose	strain or isolate	value
COc1cc([N+](=O)[O-])cc2cc(-c3cn4ccccc4n3)c(=O)oc12			MIC	BACTEC		H37Rv	>6.25 µg/mL
Cc1cn(CCCCCOc2c3ccoc3cc3oc(=O)ccc23)c(=O)[nH]c1=O			inhibition	resazurin	6.25 µg/mL	H37Rv	-29%
O=C(CSc1nnc(-c2ccccn2)s1)N/N=c1/scc(-c2ccccc2)n1-c1ccccc1			MIC			Clinical isolate 190	80 µg/mL
O=C(NNC(=S)Nc1ccc(Cl)cc1)c1ccncc1			MIC			WT	2.54 µM
O=C(NCCCCCCNC(=O)c1ccccn1)c1ccccn1			inhibition	resazurin	6.25 µg/mL	H37Rv	7%
O=c1oc2c(Br)cc(Br)cc2cc1-c1cn2ccccc2n1			inhibition	BACTEC	6.25 µg/mL	H37Rv	7%
CC1COc2c(N3CCN(C)CC3)c(F)cc3c(=O)c(C(=O)O)cn1c23			MIC	resazurin		Canettii	0.5 µg/mL
O=C(O)CCc1c2ccc(=O)c(O)c-2oc2c(O)c(O)ccc12			inhibition	BACTEC	12.5 µg/mL	H37Rv	0%
O=C1NC(=NCc2ccc(Cl)cc2)N/C1=C\c1c(Cl)cccc1Cl			inhibition		12.5 µg/mL	H37Rv	0%
O=C(CSc1nnc(-c2ccccn2)s1)N/N=c1/scc(-c2ccc([N+](=O)[O-])cc2)n1-c1ccccc1			MIC			H37Rv	40 µg/mL
O=C1NC(Nc2ccc(Cl)cc2)=N/C1=C\c1ccccc1Cl			MIC			H37Rv	<12.5 µg/mL
CO[C@H]1/C=C/O[C@@]2(C)Oc3c(C)c(O)c4c(O)c(cc(O)c4c3C2=O)NC(=O)/C(C)=C\C=C\[C@H](C)[C@H](O)[C@@H](C)[C@@H](O)[C@@H](C)[C@H](OC(C)=O)[C@@H]1C			MIC			Aoyama B (amithiozone-resistant)	12.5 µg/mL
O=C1CSC(c2ccccc2)N1C(=O)NCCCN1c2ccccc2Sc2ccccc21			inhibition	agar	25 µg/mL	H37Rv	20%
C[C@@H]1C(=O)OCC2=C3C[C@@H](CC[C@@]3(C)C=CC2=O)[C@H](C)C(=O)OCC2=C3C[C@H]1CC[C@@]3(C)C=CC2=O			inhibition	BACTEC	12.5 µg/mL	H37Rv	16%
Cc1ccccc1-c1cs/c(=N/NC(=O)CSc2nnc(-c3ccccn3)s2)n1-c1ccccc1			MIC			H37Rv	>80 µg/mL
O=C(O)/C=C/C(=O)NNC(=O)/C=C/C(=O)O			MIC	BACTEC		H37Rv	≥12.5 µg/mL
O=C(Cc1cccc(O)c1)N1CCN(S(=O)(=O)c2cccc3cnccc23)CC1	Inosine monophosphate dehydrogenase-resistant		MIC90	resazurin		SRMV2.6	>250 µM
COc1ccc2cc1-c1cc(ccc1O)C[C@@H]1NCCc3cc4c(cc31)Oc1c(c(OC)cc3c1[C@H](C2)N(C)CC3)O4			MIC	resazurin		H37Rv-ETA-R ATCC 35830	6.2 µg/mL
N/C(COc1ccc(Cl)cc1)=N/NC(=O)c1ccncc1			MIC			H37Rv	3.12 µg/mL
COc1ccccc1/C=C1/SC(c2ccccc2OC)N(C(=O)NCCCN2c3ccccc3Sc3ccccc32)C1=O			inhibition	agar	25 µg/mL	H37Rv	31%
O=C1NC(=Nc2ccc(Cl)cc2Cl)N/C1=C\c1ccc(Cl)cc1Cl			MIC			H37Rv	<12.5 µg/mL
Cc1cc(/C=N/N=c2\[nH][nH]/c(=N/N=C/c3cc(C)n(-c4ccccc4)c3C)c3ccccc23)c(C)n1-c1ccccc1			MIC bound	resazurin			>6.25 µg/mL
O=C(Nc1ccc2c(c1)OCO2)N1CCN(S(=O)(=O)c2cccc3cnccc23)CC1	Inosine monophosphate dehydrogenase-resistant		MIC90	resazurin		SRMV2.6	>100 µM
COc1ccc2c3c([nH]c2c1N)C(C)NCC3.Cl.Cl			MIC	BACTEC		H37Rv	≥12.5 µg/mL
O=C1CSC(c2ccc(O)cc2)N1C(=O)NCCCN1c2ccccc2Sc2ccccc21			inhibition	agar	50 µg/mL	H37Rv	70%
CN(C)c1ccc(NC(=S)NNC(=O)c2ccccc2)cc1			MIC			WT	9.92 µM
O=C(Oc1ccc(Cl)cc1C(=O)Nc1cccc(C(F)(F)F)c1)c1cnccn1		21 d	MIC			multidrug resistant 234/2005	2 µM
O=C(CCl)c1ccc2ccc3c(c2c1)Nc1ccccc1S3			MIC	BACTEC		H37Rv	12.5 µg/mL
Cc1ccn2cc(-c3cc4cc(Cl)cc(Cl)c4oc3=O)nc2c1			MIC	BACTEC		H37Rv	>6.25 µg/mL
c1ccc(Nc2nc(-c3ccccn3)cs2)nc1			MIC99	visual reading		H37Rv	1 µM
O=C(Oc1ccc(Cl)cc1C(=O)Nc1ccc(Cl)c(Cl)c1)c1cnccn1		14 d	MIC			multidrug resistant 53/2009	0.5 µM
c1ccc(Nc2nc(-c3nccs3)cs2)nc1			MIC	visual reading		H37Rv	20 µM
CC1(C)c2ccccc2-c2nc3ccccc3nc2C1O			inhibition	BACTEC	12.5 µg/mL	H37Rv	30%
CC1CN(S(=O)(=O)c2cccc3cnccc23)CCN1C(=O)Nc1ccc2c(c1)OCO2	Inosine monophosphate dehydrogenase-resistant		MIC90	resazurin		SRMV2.6	>100 µM
Cc1cccc(C)c1Nc1nc(-c2cccnc2)cs1			MIC	visual reading		H37Rv	>20 µM
COc1cccc(/C=N/C(=O)NCCCN2c3ccccc3Sc3ccccc32)c1			inhibition	agar	25 µg/mL	H37Rv	28%
COC(=O)C1CC(N)C(O)C1O			MIC bound	BACTEC		H37Rv	>12.5 µg/mL
O=C1NC(Nc2ccccc2)=N/C1=C\c1ccc(Cl)cc1Cl			inhibition		12.5 µg/mL	H37Rv	47%
Cc1ccn2cc(-c3cc4cc(Br)cc(Br)c4oc3=O)nc2c1			inhibition	BACTEC	6.25 µg/mL	H37Rv	17%
O=C(Oc1ccc(Cl)cc1C(=O)Nc1ccc(C(F)(F)F)cc1)c1cnccn1		21 d	MIC			multidrug resistant 53/2009	0.25 µM
O=C1CS(=O)(=O)C(c2ccccn2)N1CCN1C(=O)CS(=O)(=O)C1c1ccccn1			MIC bound	BACTEC		H37Rv	>12.5 µg/mL
COc1ccc2cc1-c1cc(ccc1O)C[C@H]1c3cc4c(cc3CCN1C)Oc1c(OC)cc3c(c1O4)[C@H](C2)N(C)CC3			MIC	resazurin		H37Rv-PAS-R ATCC 35821	3.1 µg/mL
Cc1c(CO)cc(Nc2ccc(Nc3cc(CO)c(C)c(CO)c3)c3c2C(=O)c2ccccc2C3=O)cc1CO			inhibition	BACTEC	12.5 µg/mL	H37Rv	-13%
O=C(CSc1nnc(-c2ccccn2)s1)N/N=c1/scc(-c2ccc(Cl)cc2)n1-c1ccccc1			MIC			Clinical isolate 180	40 µg/mL
C[N+]1(C)C[C@H](O)C[C@H]1C(=O)[O-]			MIC bound	BACTEC		H37Rv	>12.5 µg/mL
Cc1ccc(-c2cs/c(=N/NC(=O)CSc3nnc(-c4ccccn4)s3)n2-c2ccccc2)cc1			MIC			Clinical isolate 180	80 µg/mL
CCCCCCCCCC(=O)N[C@H]1[C@H](Oc2c3cc4cc2Oc2ccc(cc2Cl)[C@@H](O[C@@H]2O[C@H](CO)[C@@H](O)[C@H](O)[C@H]2NC(C)=O)[C@@H]2NC(=O)[C@H](NC(=O)[C@@H]4NC(=O)[C@H]4NC(=O)[C@@H](Cc5ccc(c(Cl)c5)O3)NC(=O)[C@H](N)c3ccc(O)c(c3)Oc3cc(O)cc4c3)c3ccc(O)c(c3)-c3c(O[C@H]4O[C@H](CO)[C@@H](O)[C@H](O)[C@@H]4O)cc(O)cc3[C@H](C(=O)O)NC2=O)O[C@H](CO)[C@@H](O)[C@@H]1O			MIC			L1901	64 µg/mL
O=C(CC1=Nc2nnc(-c3nnc4n3C(=O)C(CC(=O)c3cccnc3)=N4)n2C1=O)c1cccnc1			inhibition	BACTEC	12.5 µg/mL	H37Rv	0%
Cc1cccc(-n2c(-c3ccccc3)cs/c2=N/NC(=O)CSc2nnc(-c3ccccn3)s2)c1			MIC			Clinical isolate 190	>80 µg/mL
C[C@@H]1CC[C@@]2(NC1)O[C@H]1C[C@H]3[C@@H]4CC=C5C[C@@H](O[C@@H]6O[C@H](CO)[C@@H](O[C@@H]7O[C@@H](C)[C@H](O)[C@@H](O)[C@H]7O)[C@H](O)[C@H]6O[C@@H]6O[C@@H](C)[C@H](O)[C@@H](O)[C@H]6O)CC[C@]5(C)[C@H]4CC[C@]3(C)[C@H]1[C@@H]2C			inhibition	BACTEC	12.5 µg/mL	H37Rv	22%
COc1cccc(CNC(=O)N2CCN(S(=O)(=O)c3cccc4cnccc34)CC2)c1	Inosine monophosphate dehydrogenase-resistant		MIC90	resazurin		SRMV2.6	>100 µM
c1cc(CN2CCNCCNCCNCC2)cc(CN2CCNCCNCCNCC2)c1			inhibition	resazurin	6.25 µg/mL	H37Rv	-3%
O=C(C1CCCCCC1)N1CCN(S(=O)(=O)c2cccc3cnccc23)CC1	Inosine monophosphate dehydrogenase-resistant		MIC90	resazurin		SRMV2.6	>250 µM
O=C(N/N=C/c1ccccc1)c1ccncc1			MIC90				0.4 µg/mL
O=C(C1CCCCC1)N1CCN(S(=O)(=O)c2ccc3ccccc3c2)CC1			MIC90	resazurin		H37Rv	>100 µM
CC(C)(C)C1CCC(=NNC(=O)c2ccncc2)CC1			MIC			INH resistant	>0.75 µg/mL
O=c1ccc2ncccc2n1CCN1CCC(NCc2cc(Cl)c(Cl)cn2)CC1			MIC	resazurin		Beijing 1237	0.15 µg/mL
O=C(Oc1ccc(Br)cc1C(=O)Nc1ccc(C(F)(F)F)cc1)c1cnccn1		21 d	MIC			multidrug resistant 7357/1998	0.25 µM
O=C(C1CCCCC1)N1CCC(NS(=O)(=O)c2cccc3cnccc23)CC1			MIC90	resazurin		H37Rv	>100 µM
COc1cc(Br)cc2cc(-c3cn4ccc(C)cc4n3)c(=O)oc12			inhibition	BACTEC	6.25 µg/mL	H37Rv	57%
O=C1NC(=NCc2ccccc2)N/C1=C\c1ccccc1Cl			MIC			H37Rv	>12.5 µg/mL
Cc1cccc(C)c1Nc1nnc(-c2ccccn2)o1			MIC	visual reading		H37Rv	>20 µM
O=c1oc2c(Br)cc(Br)cc2cc1-c1cn2cc(Br)ccc2n1			inhibition	BACTEC	6.25 µg/mL	H37Rv	17%
N/C(COc1cccc(Cl)c1)=N/NC(=O)c1ccncc1			MIC			H37Rv	3.12 µg/mL
Cc1ccccc1/C=N/C(=O)NCCCN1c2ccccc2Sc2ccccc21			inhibition	agar	25 µg/mL	H37Rv	25%
Cc1cccc(C)c1Nc1nc(-c2cnccn2)cs1			MIC	visual reading		H37Rv	20 µM
Cc1cc(=O)n2[nH]cnc2n1			inhibition	resazurin	6.25 µg/mL	H37Rv	34%
c1ccc(-c2csc(NC3CCCCC3)n2)nc1			MIC	visual reading		H37Rv	20 µM
Cc1ccc(NC(=O)C(Cl)Cl)cc1Cl			MIC bound	BACTEC		H37Rv	≤12.5 µg/mL
N/C(COc1ccc([N+](=O)[O-])cc1)=N/NC(=O)c1ccncc1			MIC			ATCC 35820 (streptomycin-resistant)	3.12 µg/mL
COc1cc(/C=N/NC(=O)c2ccncc2)ccc1O			MIC90				0.15 µg/mL
O=C(Oc1cc(Cl)ccc1C(=O)Nc1ccc(C(F)(F)F)cc1)c1cnccn1		21 d	MIC			multidrug resistant 53/2009	0.5 µM
CN(C)c1ccc2nc3ccc(=[N+](C)C)cc-3sc2c1			inhibition	BACTEC	12.5 µg/mL	H37Rv	-10%
Cc1cc(Br)ccc1NC(=S)NNC(=O)c1ccncc1			MIC			WT	2.13 µM
Cc1ccc(-n2c(-c3ccccc3)cs/c2=N/NC(=O)CSc2nnc(-c3ccccn3)s2)cc1			MIC			Clinical isolate 180	40 µg/mL
c1ccc(-c2csc(Nc3ccc4ccccc4c3)n2)nc1			MIC	visual reading		H37Rv	2.9 µM
CO[C@H]1/C=C/O[C@@]2(C)Oc3c(C)c(O)c4c(=O)c(c5oc6cc(N7CCN(CC(C)C)CC7)cc(=O)c6nc5c4c3=C2O)NC(=O)/C(C)=C\C=C\[C@H](C)[C@H](O)[C@@H](C)[C@@H](O)[C@@H](C)[C@H](OC(C)=O)[C@@H]1C			MIC			H37RV-PLN-SIG	≤0.015 µg/mL
COc1ccc(/C=N/Nc2nnc3c(n2)[nH]c2ccc(Br)cc23)cc1			MIC bound	resazurin		H37Rv	>6.25 µg/mL
NNC(=O)c1ccncc1			MIC			INH resistant	91.14 µM
COc1cccc2cc(-c3cn4ccc(C)cc4n3)c(=O)oc12			MIC	BACTEC		H37Rv	>6.25 µg/mL

The last 8 rows once more:

smiles,mutations,conditions,read-out,read by,dose,strain or isolate,value
CN(C)c1ccc2nc3ccc(=[N+](C)C)cc-3sc2c1,,,inhibition,BACTEC,12.5 µg/mL,H37Rv,-10%
Cc1cc(Br)ccc1NC(=S)NNC(=O)c1ccncc1,,,MIC,,,WT,2.13 µM
Cc1ccc(-n2c(-c3ccccc3)cs/c2=N/NC(=O)CSc2nnc(-c3ccccn3)s2)cc1,,,MIC,,,Clinical isolate 180,40 µg/mL
c1ccc(-c2csc(Nc3ccc4ccccc4c3)n2)nc1,,,MIC,visual reading,,H37Rv,2.9 µM
CO[C@H]1/C=C/O[C@@]2(C)Oc3c(C)c(O)c4c(=O)c(c5oc6cc(N7CCN(CC(C)C)CC7)cc(=O)c6nc5c4c3=C2O)NC(=O)/C(C)=C\C=C\[C@H](C)[C@H](O)[C@@H](C)[C@@H](O)[C@@H](C)[C@H](OC(C)=O)[C@@H]1C,,,MIC,,,H37RV-PLN-SIG,≤0.015 µg/mL
COc1ccc(/C=N/Nc2nnc3c(n2)[nH]c2ccc(Br)cc23)cc1,,,MIC bound,resazurin,,H37Rv,>6.25 µg/mL
NNC(=O)c1ccncc1,,,MIC,,,INH resistant,91.14 µM
COc1cccc2cc(-c3cn4ccc(C)cc4n3)c(=O)oc12,,,MIC,BACTEC,,H37Rv,>6.25 µg/mL